Pooled drug test results. Numbers come from NIAID ChemDB, via PubChem.

All rows: target-level tests; species: Hepatitis C virus

An empty or dashed field is not shown.

SMILES,protein,endpoint,tested at,result
O=C(O)c1ccc2c(c1)nc(-c1cc3ccc(-c4ccccc4-c4ccc(Cl)cc4)nc3cc1F)n2C1CCCCC1,NS5B polymerase,inhibition,33 µM,99.29%
Cc1ccccc1S(=O)(=O)Nc1cc(-c2cccc(F)c2)sc1C(=O)O,NS3 ATPase,IC50,-,<5 µM
O=C(O)c1ccc2c(c1)nc(-c1ccc3nc(-c4ccccc4Br)c(-c4ccccc4)cc3c1)n2C1CCCCC1,NS5B polymerase,inhibition,33 µM,98.7%
CNC(=O)c1c(-c2ccc(F)cc2)oc2cc(-c3c(C)noc3C)c(O)cc12,Nonstructural protein 5B,IC50,-,≤0.5 µM
O=C(O)c1ccc2c(c1)nc(-c1ccc3nc(-c4ccncc4)ccc3c1)n2C1CCCCC1,NS5B polymerase,inhibition,100 µM,98.7%
O=C(NCc1nc2ccccc2s1)Nc1cscc1-c1nc(C(=O)O)c(O)c(=O)[nH]1,HCV polymerase,IC50,-,<25 µM
Cc1cnc2c(C(=O)O)cnn2c1C1CCCCC1,RNA-dependent RNA polymerase,IC50,-,>10 µM
O=C(Nc1ccsc1-c1nc(C(=O)O)c(O)c(=O)[nH]1)OCc1cc2ccccc2s1,HCV polymerase,IC50,-,<25 µM
O=C(O)c1cc2nccc(-c3ccc(-c4ccc(Cl)s4)cc3)n2n1,RNA-dependent RNA polymerase,IC50,-,>10 µM
Cc1ccc(C(=O)N(C)c2cc(-c3cccc(Cl)c3)sc2C(=O)O)cc1,NS3 ATPase,IC50,-,<5 µM
O=C(O)c1ccc2c(c1)nc(-c1ccc3nc(-c4cc(O)ccc4-c4ccccc4)ccc3c1)n2C1CCCCC1,NS5B polymerase,inhibition,33 µM,102%
O=C(O)c1nc(-c2ccccc2NS(=O)(=O)c2ccccc2F)[nH]c(=O)c1O,HCV polymerase,IC50,-,<100 µM
CC(=O)NCCNC(=O)c1cc2nccc(-c3ccc(-c4ccc(Cl)s4)cc3)n2n1,RNA-dependent RNA polymerase,IC50,-,>10 µM
COc1ccc(-c2cc(Cl)cc(Cl)c2)c(-c2ccc3cc(-c4nc5cc(C(=O)O)ccc5n4C4CCCCC4)ccc3n2)c1,NS5B polymerase,inhibition,100 µM,101%
CNC(=O)c1c(-c2ccc(F)cc2)oc2cc(N(CS(C)(=O)=O)OC)c(OCc3ccc(C#N)cc3)cc12,Nonstructural protein 5B,IC50,-,≤0.5 µM
O=C(O)c1ccc2c(c1)nc(-c1ccc3nc(-c4cc(OCCCN5CCCC5)ccc4-c4ccc(Cl)cc4)ccc3c1)n2C1CCCCC1,NS5B polymerase,inhibition,100 µM,94.86%
CNC(=O)c1c(-c2ccc(F)cc2)oc2cc(-c3c(C)noc3C)c(OCCCO)cc12,Nonstructural protein 5B,IC50,-,≤0.5 µM
Cn1nnnc1-c1cnn2c(C3CCCCC3)c(-c3ccc(OCc4ccccc4)cc3)cnc12,RNA-dependent RNA polymerase,IC50,-,>10 µM
O=C(O)c1sc(-c2ccccc2)cc1N(Cc1ccccc1)C(=O)CC1CCCC1,NS3 ATPase,IC50,-,<5 µM
COc1ccc2occ(-c3ccc4cc(-c5nc6cc(C(=O)O)ccc6n5C5CCCCC5)ccc4n3)c2c1,NS5B polymerase,inhibition,100 µM,99.96%
Cc1ccccc1S(=O)(=O)Nc1cc(-c2ccc(C(N)=O)cc2)sc1C(=O)O,NS3 ATPase,IC50,-,5–20 µM
Cc1ccsc1CCOC(=O)Nc1ccsc1-c1nc(C(=O)O)c(O)c(=O)[nH]1,HCV polymerase,IC50,-,<25 µM
O=C(NS(=O)(=O)C(F)(F)F)c1cc2nc(-c3ccco3)c(C3CCCCC3)c(=O)n2[nH]1,RNA-dependent RNA polymerase,IC50,-,1–10 µM
CC(OC(=O)Nc1ccsc1-c1nc(C(=O)O)c(O)c(=O)[nH]1)c1ccccc1,HCV polymerase,IC50,-,<25 µM
O=C(O)c1cc2nc(-c3ccc(Oc4ccccc4)cc3)cc(-c3cccc(Cl)c3)n2n1,RNA-dependent RNA polymerase,IC50,-,1–10 µM
CCOc1cc(F)ccc1-c1oc2cc(-c3c(C)noc3C)c(OC)cc2c1C(=O)NC,Nonstructural protein 5B,IC50,-,≤0.5 µM
O=C(Nc1cccc(Cl)c1)Nc1cscc1-c1nc(C(=O)O)c(O)c(=O)[nH]1,HCV polymerase,IC50,-,<25 µM
Cc1ccc(S(=O)(=O)Nc2cc(-c3ccc(C(N)=O)cc3)sc2C(=O)O)cc1,NS3 ATPase,IC50,-,<5 µM
O=C(O)c1cnn2c(-c3ccccc3)cc(-c3ccc(Cl)cc3)nc12,RNA-dependent RNA polymerase,IC50,-,>10 µM
O=C(O)c1ccc2c(c1)nc(-c1ccc3nc(CCCO)ccc3c1)n2C1CCCCC1,NS5B polymerase,inhibition,33 µM,83.75%
O=C(NCc1ccc(Cl)cc1Cl)Nc1ccccc1-c1nc(C(=O)O)c(O)c(=O)[nH]1,HCV polymerase,IC50,-,<100 µM

Repeating the final 4 entries:

SMILES | protein | endpoint | tested at | result
Cc1ccc(S(=O)(=O)Nc2cc(-c3ccc(C(N)=O)cc3)sc2C(=O)O)cc1 | NS3 ATPase | IC50 | - | <5 µM
O=C(O)c1cnn2c(-c3ccccc3)cc(-c3ccc(Cl)cc3)nc12 | RNA-dependent RNA polymerase | IC50 | - | >10 µM
O=C(O)c1ccc2c(c1)nc(-c1ccc3nc(CCCO)ccc3c1)n2C1CCCCC1 | NS5B polymerase | inhibition | 33 µM | 83.75%
O=C(NCc1ccc(Cl)cc1Cl)Nc1ccccc1-c1nc(C(=O)O)c(O)c(=O)[nH]1 | HCV polymerase | IC50 | - | <100 µM

Lines come from different laboratories, so protocols vary. ICn is the concentration giving n% inhibition. Two numbers with a dash give a range or band. Inhibition is in % at the dose shown (toxicity tests: loss of growth or viability).